Laboratory results: US20020025512A1, “FLUORESCENCE POLARIZATION- BASED DIAGNOSTIC ASSAY FOR EQUINE INFECTIOUS ANEMIA VIRUS” (priority 1998, published 2002)

Tested on: serum antibodies to equine infectious anemia virus
Experiment: Fluorescence polarization (FP) assay of fluorescein-labeled peptides with diluted horse serum
Format: binding
Method: Several different buffer compositions and detergents were therefore tested for compatibility with horse serum. When horse serum was diluted 1:50 or 1:100 into 20-50 mM sodium phosphate without NaCl, this problem was virtually eliminated. […] Under the low-salt conditions, the polarization of peptide R51-5CF increased from 50 mP to over 200 mP with a 1:100 dilution of a strong positive EIAV antiserum from an experimental infection (Pony 95). Thus it was determined that the optimal buffer composition for the FP assay was 50 mM sodium phosphate, pH 6.8-7.0.
Fluorescence Polarization (FP) Measurements. The fluorescein-labeled peptides were evaluated for their suitability as probes for FP using an FPM-1 Fluorescence Polarization Analyzer (Jolley Consulting and Research, Grayslake, Ill.) batch mode with the following settings: PMT gain 80, heater off, single read. Serum was diluted 1:100 or 1:50 into 2 mL of buffer in 12×75 mm borosilicate glass tubes (VWR). After reading the blank, fluorescently labeled peptide was added to a final concentration of 1-2 nM (100K-200K total intensity) and incubated for at least 15 minutes. The FP of the sample was measured and expressed as millipolarization units (mP). Some of the sera were very dark, presumably due to hemolysis. If such a serum sample had low lamp feedback (<0.63), a two-fold further dilution was tested. Polarization data was output to a computer running the FPM-1 data collection software, then converted to an ASCII text file and imported into the Quattro Pro spreadsheet program (Corel, Ottawa, Ontario) for data analysis and graphing.
Because different fluorescein linkages can result in differences in sensitivity in the FP assay, R51 peptide was labeled with 6-carboxyfluorescein so the difference between the two labels could be ascertained. […] Peptides (approx. 2 nM) were incubated with a 1:100 dilution of serum in 50 mM sodium phosphate, pH 6.8, for 20 minutes. The results are shown in FIG. 2, in order of decreasing peptide length. In FIG. 2, black bars show the results for experimentally-infected (pony 95), hatched bars for field infected ([…]), gray bars for uninfected (Petite), and white bars for no serum added. […] As the R51-6CF probe was the most sensitive to the positive sera tested, 6-carboxyfluorescein is the preferred fluorophore. However, other fluorophores, such as rhodamine, BODIPY™ M, Texas Red™ and Lucifer yellow, could also be used. For a detailed listing of a variety of commercially available fluorophores, see Handbook of Fluorescent Probes and Research Chemicals, ed. Karen Larison, by Richard P. Haughland, Ph.D., 5th ed., 1992, published by Molecular Probes, Inc.

Row | Substance | sensitivity with a single envelope-based peptide antigen (summary statement) | specificity (110 AGID-negative sera, samples kept in good condition) [%] | overall percent reactivity of serum panel in the FP assay (153 field-infected sera (Texas, Utah, Missouri, Florida), vs AGID) [%] | positive Texas sera that did not react with the probe in the FP assay (even at a 1:50 dilution) | time at which antibody was detected (experimental infection of four ponies, weekly sera, 1:100 and 1:50 dilutions) [weeks post infection] | average sensitivity of the FP assay (two other studies) [%] | specificity of the FP assay (two other studies) [%]
1 | IGCIERTHVFCHTG (Equine infectious anemia virus) [R51] | approximately 90% |  |  |  |  |  | 
2 | R51-6CF: R51 peptide (SEQ ID NO 1) labeled with 6-carboxyfluorescein (IGCIERTHVFCHTG; 6-carboxyfluorescein label; Equine infectious anemia virus) |  | 100 | 93 | 14 samples out of 123 | 3 | 95 | 100
